B1: P2C-1C8 (antibody, V domains shown)
VH: QVQLVESGGGVVQPGRSLRLSCAASGFTFRSYGMHWVRQAPGKGLEWVAVIWYDGSNKYYADSVKGRFTISRDNSKNTLYLQMNSLRAEDTAVYYCARDIEIVVVNIDYWGQGTLVTVSS
VL: not shown
notes: human IgG1, kappa
B2: P2C-1C10 (antibody, V domains shown)
VH: QVQLVQSGAEVKKPGSSVKVSCKASGGTFSSYAIIWVRQAPGQGLEWMGGIIPIFGTANYAQKFQGRVTITADESTSTAYMELSSLRSEDTAVYYCARVVTGYYFDYWGQGTLVTVSS
VL: EIVLTQSPATLSLSPGERATLSCRASQSVSSYLAWYQQKPGQAPRLLIYDASNRATGIPARFSGSGSGTDFTLTISSLEPEDFAVYYCQQRSNWPSFGQGTKLEIKR
notes: human IgG1, kappa
B3: P2C-1A3 (antibody, V domains shown)
VH: QVQLVESGGGLVKPGGSLRLSCAASGFTFSDYYMSWIRQAPGKGLEWVSYISSSGSTIYYADSVKGRFTISRDNAKNSLYLQMNSLRAEDTAVYYCARDFSHQQLVPSWGQGTLVTVSS
VL: not shown
notes: human IgG1, kappa

In this test the target is recombinant RBD of the spike protein of SARS-CoV (SARS-CoV, UniProt P59594 306-527). Nature of the test: SPR, RBD on CM5 chip.
For the molecule B1, the binding result is listed as “no binding (tested: not printed)”. Take B2: the binding result is recorded as “no binding (tested: not printed)”.

As for B3, the binding result is listed as “no binding (tested: not printed)”.

Values taken from US20210292392A1 (TSB THERAPEUTICS BEIJING, published 2021).
